This passage reports IC50 results from article PMC5458052 (Nature Communications, 2017).

For this assay, the system named is P. falciparum. The experiment in a line: In vitro antimalarial activity (Figure 1b).

pIC50: −log10 of the molar value.

Consider `C1CCC2(CC1)OOC1(CCCCC1)OO2`, for which the pIC50 is 7.60.

Broadly, the pIC50 is the negative decadic logarithm of the IC50, by convention in mol/L.
